Measured values from several laboratories, pooled; numbers as filed in NIAID ChemDB.

All rows: toxicity to cultured cells; cells: MT-4; read-out: CC50

CCn: concentration that lowers growth or viability of the cells by n%.

{"smiles": "CC(C)Nc1cccnc1N1CCN(C(=O)c2c[nH]c(-c3ccccc3NS(C)(=O)=O)c2)CC1", "value": "22 µM"}
{"smiles": "CC(=O)OCC1=C[C@H]2[C@@H]3C(C)(C)[C@]3(OC(C)=O)[C@H](O)[C@@H](C)[C@]2(O)[C@@H]2C=C(C)C(=O)[C@]2(O)C1", "value": ">1000 µg/mL"}
{"smiles": "C1CNCCNCCCN(CCCN2CCCNCCNCCCNCC2)CCNC1", "value": ">250 µg/mL"}
{"smiles": "CCc1c(Sc2cc(C)cc(C)c2)n(COCCO)c(=O)[nH]c1=O", "value": "155 µM"}
{"smiles": "c1ccc2c(CN3CCCNCCNCCCNCC3)cc(CN3CCCNCCNCCCNCC3)cc2c1", "value": ">250 µg/mL"}
{"smiles": "COc1ccc(OC)c2c1c(/C(O)=C/C(=O)C(=O)O)cn2Cc1ccc(F)cc1", "value": "213 µM"}
{"smiles": "COC(=O)C(=O)N1CCC[C@H]1C(=O)N[C@@H](Cc1ccccc1)C(=O)OCc1ccccc1", "value": ">200 µM"}
{"smiles": "c1cc(CN2CCCNCCCNCCNCCC2)ccc1CN1CCCNCCCNCCNCCC1", "value": ">250 µg/mL"}
{"smiles": "CC(C)[C@H](NC(=O)OCc1ccccc1)C(=O)N[C@@H](Cc1ccccc1)C(=O)C(F)(F)CCc1ccccc1", "value": ">100 µM"}
{"smiles": "CCCN(C)C(=O)Oc1nsnc1-c1c(Cl)cccc1Cl", "value": "28.5 µM"}
{"smiles": "COc1ccc(CSc2nc(Cc3ccccc3Br)c(C)c(=O)[nH]2)cc1", "value": ">179 µM"}
{"smiles": "O=C(OC[C@@H]1CC[C@H](n2ccc(=O)[nH]c2=O)O1)C(=O)N1CCCC1C(=O)N[C@H](Cc1ccccc1)C(=O)OCc1ccccc1", "value": ">65 µM"}
{"smiles": "CC1(C)S[C@H]([C@H](NC(=O)Cc2ccccc2)C(=O)NCc2ccccc2)N[C@H]1C(=O)N[C@H](Cc1ccccc1)[C@H](O)CC(=O)NCc1ccccc1", "value": ">100 µM"}
{"smiles": "CC(C)Nc1cccnc1N1CCN(C(=O)c2cc3cc(NS(C)(=O)=O)ccc3[nH]2)CC1", "value": "21 µg/mL"}
{"smiles": "C1CNCCNCCCN(CCCN2CCCNCCNCCCNCC2)CCNC1", "value": ">622 µM"}
{"smiles": "CC(C)[C@H](NC(=O)OCc1ccccn1)C(=O)N[C@@H](Cc1ccccc1)C(=O)C(F)(F)CCc1ccccc1", "value": "21 µM"}
{"smiles": "O=C(/C=C/c1ncc(-c2cccnc2)cn1)Nc1cc(-c2ccc3c(c2)CCCC3)[nH]n1", "value": ">30 µM"}
{"smiles": "Nc1nc2c(ncn2CCOCP(=O)(O)O)c(=O)[nH]1", "value": "1.6 µM"}
{"smiles": "Cc1cn([C@H]2C[C@H](F)[C@@H](CO)O2)c(=O)[nH]c1=O", "value": "1.1 µM"}
{"smiles": "C[C@H](Cn1cnc2c(=O)[nH]c(N)nc21)OCP(=O)(O)O", "value": ">200 µM"}
{"smiles": "c1cc(CN2CCCNCCCNCCNCCC2)cc(CN2CCCNCCCNCCNCCC2)c1", "value": ">250 µg/mL"}
{"smiles": "CC(C)Nc1cccnc1N1CCN(C(=O)c2ccc(-c3cccc(N)c3)[nH]2)CC1", "value": "42 µM"}
{"smiles": "Cc1cn([C@H]2C[C@H](F)[C@H](CO)O2)c(=O)[nH]c1=O", "value": ">1000 µM"}
{"smiles": "Cc1ccnc2c1NC(=O)c1cccnc1N2C1CC1", "value": "224 µM"}
{"smiles": "COc1ccc2c(CN3CCN(Cc4c(O)ccc5cc(OC)ccc45)CC3)c(O)ccc2c1", "value": ">100 µM"}
{"smiles": "CCCCC/C=C\\C/C=C\\CCCCCCCC(=O)OCC1=C[C@H]2[C@@H]3C(C)(C)[C@]3(OC(C)=O)[C@H](OC(C)=O)[C@@H](C)[C@]2(O)[C@@H]2C=C(C)C(=O)[C@@]2(O)C1", "value": ">62.5 µg/mL"}
{"smiles": "S=c1[nH]c2cc(Cl)c(Cl)cc2[nH]1", "value": ">100 µM"}
{"smiles": "Cc1cn([C@H]2C=C[C@H](CO)O2)c(=O)[nH]c1=O", "value": "10 µM"}
{"smiles": "O=[N+]([O-])c1cc(CN2CCCNCCNCCCNCC2)cc(CN2CCCNCCNCCCNCC2)c1", "value": ">250 µg/mL"}
{"smiles": "CC(C)(C)NC(=O)[C@@H]1CN(Cc2cccnc2)CCN1C[C@@H](O)C[C@@H](Cc1ccccc1)C(=O)N[C@H]1c2ccccc2C[C@H]1O", "value": ">100 µg/mL"}
{"smiles": "O=C(Nc1cc(-c2ccc3c(c2)CCCC3)[nH]n1)c1ccc(-c2cncnc2)s1", "value": ">30 µM"}
{"smiles": "O=[N+]([O-])c1c(-c2ccccc2)n(COCCO)c2ccccc12", "value": "154 µM"}
{"smiles": "COc1cc(O)c2c(c1)C(=O)c1c(cc3c(c1O)-c1c(cc(C)c(C(=O)N[C@H](C)C(=O)O)c1O)[C@H](O[C@@H]1O[C@H](C)[C@H](O)[C@H](O[C@@H]4OC[C@@H](O)[C@H](O)[C@H]4O)[C@H]1O)[C@H]3O)C2=O", "value": ">100 µg/mL"}
{"smiles": "CC(C)Nc1cccnc1N1CCN(C(=O)c2ccc(-c3ccccc3)[nH]2)CC1", "value": "26 µM"}
{"smiles": "O=c1[nH]cnc2c1ncn2[C@H]1CC[C@@H](CO)O1", "value": "226 µM"}
{"smiles": "COC(=O)c1cc(CN2CCCNCCNCCCNCC2)ccc1CN1CCCNCCNCCCNCC1", "value": ">250 µg/mL"}
{"smiles": "Nc1ccn([C@H]2CC[C@@H](CO)O2)c(=O)n1", "value": "165 µM"}
{"smiles": "CC(C)[C@H](NC(=O)N(C)Cc1ccccn1)C(=O)N[C@@H](Cc1ccccc1)[C@@H](O)[C@H](O)[C@H](Cc1ccccc1)NC(=O)[C@@H](NC(=O)N(C)Cc1ccccn1)C(C)C", "value": ">100 µM"}
{"smiles": "O=c1ccc2ccc(O)c(CN3CCN(Cc4c(O)ccc5ccc(=O)oc45)CC3)c2o1", "value": "20 µM"}
{"smiles": "Nc1ncnc2c1ncn2CCOCP(=O)(O)OP(=O)(O)OP(=O)(O)O", "value": ">200 µM"}
{"smiles": "CCCN(C)C(=O)Oc1nsnc1-c1c(Cl)ccc(OC)c1Cl", "value": "103 µM"}
{"smiles": "CCc1cn([C@@H]2O[C@H](CO[Si](C)(C)C(C)(C)C)C3(OS(=O)(=O)C=C3N)[C@H]2O[Si](C)(C)C(C)(C)C)c(=O)[nH]c1=O", "value": "5.5 µM"}
{"smiles": "C(CCCN1CCCNCCNCCCNCC1)CCN1CCCNCCNCCCNCC1", "value": "290 µM"}
{"smiles": "CC(=O)Oc1ccc2cc(Br)ccc2c1Cc1c(-c2ccccc2)[nH]c2ccccc12", "value": "8 µM"}
{"smiles": "Nc1ncnc2c1ncn2CCOCP(=O)(O)O", "value": ">70 µM"}
{"smiles": "Nc1ncnc2c1ncn2[C@H]1CC[C@@H](CO)O1", "value": ">150 µM"}
{"smiles": "CCCCN(C)C(=O)Oc1nsnc1-c1c(Cl)cccc1Cl", "value": "22.5 µM"}
{"smiles": "CC(=O)Oc1ccc2cc(Br)ccc2c1Cc1c[nH]c2ccc(Br)cc12", "value": "19 µM"}
{"smiles": "COC(=O)[C@@H](C)NC(=O)c1c(C)cc2c(c1O)-c1c(cc3c(c1O)C(=O)c1cc(OC)cc(O)c1C3=O)[C@H](O)[C@H]2O[C@@H]1O[C@H](CO)[C@H](N)[C@H](O)[C@H]1O", "value": ">101 µg/mL"}
{"smiles": "CC(C)Nc1cccnc1N1CCN(C(=O)c2cc3cc(NS(C)(=O)=O)ccc3[nH]2)CC1", "value": ">100 µM"}
{"smiles": "Cc1ccnc2c1NC(=O)c1cccnc1N2C1CC1", "value": "290 µM"}
{"smiles": "CC(C)[C@H](NC(=O)NCc1ccccn1)C(=O)N[C@@H](Cc1ccccc1)C(=O)C(F)(F)CCc1ccccc1", "value": ">100 µM"}
{"smiles": "CC(C)Nc1cccnc1N1CCN(C(=O)c2c[nH]c(-c3ccccc3)c2)CC1", "value": "78 µM"}
{"smiles": "COc1cc(CN2CCCNCCNCCCNCC2)c(OC)cc1CN1CCCNCCNCCCNCC1", "value": "185 µg/mL"}
{"smiles": "COc1ccc2[nH]cc(Cc3c(OC(C)=O)ccc4ccccc34)c2c1", "value": "19 µM"}
{"smiles": "Nc1nccc2c1ncn2[C@@H]1C=C(CO)[C@@H](O)[C@H]1O", "value": "0.072 µM"}
{"smiles": "Nc1nc2c(ncn2CCOCP(=O)(O)O)c(=O)[nH]1", "value": "1.7 µM"}
{"smiles": "COc1cc2c(cc1/C=C/C(=O)c1ccc(O)cc1)CC(C)(C)C(C)O2", "value": "6 µg/mL"}
{"smiles": "C/C=C(/C)C(=O)O[C@]12C(C3C=C(CO)C[C@]4(O)C(=O)C(C)=CC4[C@@]3(O)[C@H](C)[C@H]1OC(C)=O)C2(C)C", "value": ">500 µg/mL"}
{"smiles": "CC1(C)S[C@H]([C@H](NC(=O)Cc2ccccc2)C(=O)NCc2ccccc2)N[C@H]1C(=O)NCCNC(=O)[C@@H]1N[C@@H]([C@H](NC(=O)Cc2ccccc2)C(=O)NCc2ccccc2)SC1(C)C", "value": ">100 µM"}
{"smiles": "O=c1[nH]c(=O)n([C@H]2C[C@H](F)[C@@H](CO)O2)cc1Cl", "value": "490 µM"}
{"smiles": "Nc1ncnc2c1ncn2CCOCP(=O)(O)O", "value": "54 µM"}
{"smiles": "Nc1ccn([C@@H]2CC[C@H](CO)O2)c(=O)n1", "value": "82.5 µM"}
{"smiles": "CC(=O)OCCOCn1cc(C(C)=O)c2ccccc21", "value": ">200 µM"}
{"smiles": "CC1=C[C@@H]2[C@@H](CC(CO)=C[C@H]3[C@@H]4C(C)(C)[C@]4(O)[C@H](O)[C@@H](C)[C@]23O)C1=O", "value": ">500 µg/mL"}
{"smiles": "C=C[C@@]1(CO)CO[C@@H](n2ccc(=O)[nH]c2=O)C1", "value": ">100 µg/mL"}
{"smiles": "CC(=O)OCCOCn1c(-c2ccccc2)c([N+](=O)[O-])c2ccccc21", "value": ">200 µM"}
{"smiles": "C=C[C@@]1(CO)CO[C@H](n2cc(C)c(=O)[nH]c2=O)C1", "value": ">100 µg/mL"}
{"smiles": "CCc1cc(CCc2nc3ccccc3o2)c(=O)[nH]c1C", "value": "188 µM"}
{"smiles": "O=C(OCC1OC(Sc2nc3cc(Cl)c(Cl)cc3[nH]2)C(OC(=O)c2ccccc2)C1OC(=O)c1ccccc1)c1ccccc1", "value": ">100 µM"}
{"smiles": "CCc1c(Sc2cc(C)cc(C)c2)n(COCCOP(=O)(O)OC[C@H]2O[C@@H](n3cc(C)c(=O)[nH]c3=O)C[C@@H]2N=[N+]=[N-])c(=O)[nH]c1=O", "value": "15.5 µM"}
{"smiles": "Nc1nc(N)c2ncn([C@H]3CC[C@@H](CO)O3)c2n1", "value": ">500 µM"}
{"smiles": "Nc1nc2c(ncn2[C@H]2CC[C@@H](CO)O2)c(=O)[nH]1", "value": "1.4 µM"}
{"smiles": "Nc1ccc(O[C@H]2O[C@H](CO)[C@@H](O)[C@H](O)[C@@H]2O)cc1", "value": ">923 µM"}
{"smiles": "CCCN(C)C(=O)Oc1nsnc1-c1c(Cl)ccc(C#N)c1Cl", "value": "66 µM"}
{"smiles": "Clc1cc(CN2CCCNCCNCCCNCC2)c(Cl)cc1CN1CCCNCCNCCCNCC1", "value": ">250 µg/mL"}
{"smiles": "COc1c(CC=C(C)C)c(O)cc2c1C[C@H](c1ccc(O)c(CC=C(C)C)c1O)CO2", "value": "15 µg/mL"}
{"smiles": "Cc1ccnc2c1NC(=O)c1cccnc1N2C1CC1", "value": "70 µg/mL"}
{"smiles": "CC(C)=CCc1c(O)cc2occ(-c3cc(O)c4c(c3)C=CC(C)(C)O4)c(=O)c2c1O", "value": "14 µg/mL"}
{"smiles": "Nc1nc(N)c2ncn([C@H]3C=C[C@@H](OCP(=O)(O)O)O3)c2n1", "value": ">100 µM"}
{"smiles": "CC(C)=CCc1c(O)cc(O)c2c1O[C@H](c1ccc(O)cc1)CC2=O", "value": "62 µg/mL"}
{"smiles": "CCc1c(Cc2cccc3ccccc23)nc(SCc2ccc(OC)cc2)[nH]c1=O", "value": ">227 µM"}
{"smiles": "Cc1cn([C@@H]2O[C@@H](CO)[C@H](N=[N+]=[N-])[C@@H]2O)c(=O)[nH]c1=O", "value": ">1000 µM"}
{"smiles": "CN(C)C(=O)Oc1nsnc1-c1c(Cl)cccc1Cl", "value": "190 µM"}
{"smiles": "Nc1nc2c(ncn2CCOCP(=O)(O)OP(=O)(O)OP(=O)(O)O)c(=O)[nH]1", "value": ">200 µM"}
{"smiles": "CCC1(c2ccccc2)Oc2ccccc2-n2cccc2C1=O", "value": "3.31 µM"}
{"smiles": "Cc1c(O)cccc1C(=O)N[C@@H](CSc1ccccc1)[C@H](O)CN1C[C@H]2CCCC[C@H]2C[C@H]1C(=O)NC(C)(C)C", "value": "4.6 µg/mL"}
{"smiles": "CCN(C)C(=O)Oc1nsnc1-c1c(Cl)cccc1Cl", "value": "29 µM"}
{"smiles": "Nc1ccn([C@H]2CC[C@@H](CO)O2)c(=O)n1", "value": ">150 µM"}
{"smiles": "CCCN(C)C(=O)Oc1nsnc1-c1c(Cl)ccc(OCOC)c1Cl", "value": "43 µM"}
{"smiles": "COc1ccc(CSc2nc(Cc3ccc(-c4ccccc4)cc3)c(C)c(=O)[nH]2)cc1", "value": ">100 µM"}
{"smiles": "Cc1cn(C2C[C@H](N)[C@H](CO)O2)c(=O)[nH]c1=O", "value": ">1000 µM"}
{"smiles": "CCCN(C)C(=O)Oc1nsnc1-c1c(Cl)ccc(O)c1Cl", "value": "34 µM"}

10 of the rows above, restated:

smiles,value
COc1ccc(CSc2nc(Cc3ccccc3Br)c(C)c(=O)[nH]2)cc1,>179 µM
CCCN(C)C(=O)Oc1nsnc1-c1c(Cl)cccc1Cl,28.5 µM
C/C=C(/C)C(=O)O[C@]12C(C3C=C(CO)C[C@]4(O)C(=O)C(C)=CC4[C@@]3(O)[C@H](C)[C@H]1OC(C)=O)C2(C)C,>500 µg/mL
Nc1ccn([C@@H]2CC[C@H](CO)O2)c(=O)n1,82.5 µM
Nc1ccn([C@H]2CC[C@@H](CO)O2)c(=O)n1,165 µM
COC(=O)c1cc(CN2CCCNCCNCCCNCC2)ccc1CN1CCCNCCNCCCNCC1,>250 µg/mL
COc1ccc2[nH]cc(Cc3c(OC(C)=O)ccc4ccccc34)c2c1,19 µM
Cc1cn([C@H]2C=C[C@H](CO)O2)c(=O)[nH]c1=O,10 µM
CC(C)Nc1cccnc1N1CCN(C(=O)c2cc3cc(NS(C)(=O)=O)ccc3[nH]2)CC1,>100 µM
Cc1cn([C@H]2C[C@H](F)[C@@H](CO)O2)c(=O)[nH]c1=O,1.1 µM

Lines come from different laboratories, so protocols vary.